From PMC3614987, “Exploring the Chemical Space around 8-Mercaptoguanine as a Route to New Inhibitors of the Folate Biosynthesis Enzyme HPPK” (PLoS ONE, 2013)

By UniProt entry, the sequences of proteins in these tests, tags left out. Residues count along the entry.
UniProt A0A0H3JXR3, 1-158: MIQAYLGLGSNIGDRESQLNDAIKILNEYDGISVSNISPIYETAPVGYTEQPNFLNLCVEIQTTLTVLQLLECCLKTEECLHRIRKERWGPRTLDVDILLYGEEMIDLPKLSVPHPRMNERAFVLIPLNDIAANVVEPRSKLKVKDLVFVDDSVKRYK

target: SaHPPK (Staphylococcus aureus, UniProt A0A0H3JXR3); test: SPR binding to SaHPPK; details: read-out: K D a, in the presence of 10 mM Mg2+, 293 K
Excerpt: Initially, the binding of each of the test compounds to SaHPPK was quantitatively assessed using SPR (Fig. S1, S2). […] Moreover, all sensorgrams (Fig. S1 and S2) were of high quality and consistent with near perfect 1∶1 stoichiometric binding of analogues. Table 1 lists the estimated equilibrium dissociation constants (KD). […] This supports the hypothesis that the 8-mercapto group of 8-MG aids binding through the formation of one or more favorable interactions with SaHPPK.
All SPR binding experiments were performed as described previously. The only difference was the use of a sulfhydryl reactive maleimide-activated biotin derivative (Thermo Scientific, 1-biotinamido-4-(4′-[maleimidoethylcyclohexane]-carboxamido)butane. The maleimide-activated biotin was attached to the exposed surface cysteine residue of SaHPPK according to manufacturer’s instructions. The resulting site-specific biotinylated protein was immobilized onto the sensor chip surface using the Biotin capture kit (GE Healthcare). All analogues were serially diluted (either 2- or 3-fold from 126 µM down to 1.5 µM) in SPR binding buffer (50 mM HEPES, 150 mMNaCl, 1 mM TCEP, 0.05% (v/v) Tween-20, 10 mM MgCl2, 5% (v/v) DMSO, pH 8.0) and injected for 30 sec contact time at 60 µL/min and then allowed to dissociate for 60 sec. Binding sensorgrams were processed using the Scrubber (version 2c, BioLogic Software, Campbell, Australia). To determine the binding affinity (equilibrium dissociation constant; KD), responses at equilibrium for each compound were fit to a 1∶1 steady state affinity model available within Scrubber.

`Nc1nc2[nH]c(Br)nc2c(=O)[nH]1` and `Nc1nc2[nH]c(O)nc2c(=O)[nH]1` are within 1.5-fold of each other in Kd: 248 µM for the first, 257 µM for the second.

Compared with `Nc1nc2[nH]c(N3CCOCC3)nc2c(=O)[nH]1`, `Cc1nc2c(=O)[nH]c(N)nc2[nH]1` is 1.5-fold lower in Kd: 246 µM for the first, 159 µM for the second.
